Results of unrelated studies side by side (data: NIAID ChemDB).

Shared fields: target-level tests; target: CCR5; read-out: IC50

ICn: concentration for n% inhibition. Lines come from different laboratories, so protocols vary.

compound,read by,value
CCN(C(=O)Cc1ccc(S(C)(=O)=O)cc1)C1CCN(CCC(c2ccccc2)N2CCN(S(=O)CC)CC2)CC1,radiometric,0.014 µM
Cc1ccc(N(CCCN2CCC(Cc3ccc(F)cc3)CC2)C(=O)C2CCN(S(C)(=O)=O)CC2)cc1Cl,radiometric,0.0005 µM
CCCCOCCOc1ccc(-c2ccc3c(c2)C=C(C(=O)Nc2ccc(C(O)c4c(C)ccc[n+]4[O-])cc2)CCN3CC(C)C)cc1,radiometric,0.13 µM
CCN(C(=O)Cc1ccc(S(C)(=O)=O)cc1)C1CCN(CCC(c2ccccc2)N2CCN(S(=O)(=O)c3cccs3)CC2)CC1,radiometric,0.002 µM
CCCCOCCOc1ccc(-c2ccc3c(c2)C=C(C(=O)Nc2ccc(C(O)c4cccc[n+]4[O-])c(Cl)c2)CCN3CC(C)C)cc1,radiometric,0.024 µM
CSc1ccc(CC2CCN(CCCN(C(=O)C3CCN(S(C)(=O)=O)CC3)c3ccc(Cl)c(Cl)c3)CC2)cc1,radiometric,0.0031 µM
CN(C[C@@H](CCN1CCC2(CC1)CS(=O)c1ccccc12)c1ccc(Cl)c(Cl)c1)C(=O)N(C)c1ccccc1,radioligand binding / binding,>10 µM
O=C(OCc1ccccc1)N(CCCN1CCC(Cc2ccccc2)CC1)c1ccccc1,radiometric,2 µM
CCN(C(=O)Cc1ccc(S(C)(=O)=O)cc1)C1CCN(CCC(c2ccccc2)N2CCN(S(=O)(=O)CC(F)(F)F)CC2)CC1,radiometric,0.006 µM
C=CCN(C1CCN(C[C@H]2CN(C(=O)C3CCCC3)C[C@]2(O)c2ccccc2)CC1)S(=O)(=O)c1ccc(C)cc1,radiometric,0.0534 µM
O=C1CC(C(=O)N(CCCN2CCC(Cc3ccccc3)CC2)c2ccccc2)CN1Cc1ccccc1Cl,radiometric,<1 µM
CCCCOCCOc1ccc(-c2ccc3c(c2)C=C(C(=O)Nc2ccc(CN(C)C4CCOCC4)cc2)CCN3CC2CCCCC2)cc1,radiometric,0.014 µM
CCCCOCCOc1ccc(-c2ccc3c(c2)C=C(C(=O)Nc2ccc(CS(=O)c4ccccn4)cc2)CCN3CCC)cc1,radiometric,0.25 µM
Cc1ccnc(C)c1C(=O)N1CCC(C)(N2CCN([C@@H](C)c3ccc(C(F)(F)F)cc3)[C@@H](C)C2)CC1,fluorescence,<0.1 µM
CCCCOCCOc1ccc(-c2ccc3c(c2)C=C(C(=O)Nc2ccc(S(=O)Cc4ccnn4C)cc2)CCN3CC(C)C)cc1,radiometric,0.035 µM
CCCCOCCOc1ccc(-c2ccc3c(c2)C=C(C(=O)Nc2ccc([C@@H](O)c4cccc[n+]4[O-])c(C(F)(F)F)c2)CCN3CC(C)C)cc1,radiometric,0.043 µM
CCc1ccc(-c2ccc3c(c2)C=C(C(=O)Nc2ccc(CN(C)C4CCOCC4)cc2)CCS3(=O)=O)cc1,radiometric,0.06 µM
CSc1ccc(NC(=O)N(CCCN2CCC(Cc3ccc(F)cc3)CC2)c2ccccc2)cc1,radiometric,0.015 µM
CN1CC(C(=O)N(CCCN2CCC(Cc3ccccc3)CC2)Cc2ccccc2)CC1=O,radiometric,<1 µM
CCCCOCCOc1ccc(-c2ccc3c(c2)C=C(C(=O)Nc2ccc(C(O)c4cc(C)cc[n+]4[O-])cc2)CCN3CC(C)C)cc1,radiometric,0.032 µM
O=C(C1CCCCC1)N1C[C@@H](CN2CCC(c3ccccc3)CC2)[C@](O)(c2ccccc2)C1,radiometric,~2 µM
CCN(C(=O)Cc1ccc(S(C)(=O)=O)cc1)C1CCN(CC[C@H](NC(=O)C2CCN(S(=O)(=O)CC)CC2)c2ccccc2)CC1,fluorescence,<50 µM
CN1CC(C(=O)N(CCCN2CCC(Cc3ccc(F)cc3)CC2)c2ccc(Cl)c(Cl)c2)CC1=O,radiometric,<1 µM
CN1CC(C(=O)N(CCCN2CCCCC2)c2ccccc2)CC1=O,radiometric,>10 µM
CN1CC(C(=O)N(CCCN2CCC3(C=Cc4ccccc43)CC2)c2ccccc2)CC1=O,radiometric,>1 µM
CCN(C(=O)Cc1ccc(S(C)(=O)=O)cc1)C1CCN(CC[C@H](NC(=O)C2CCN(C(=O)C(C)C)CC2)c2ccccc2)CC1,fluorescence,<50 µM
CN(C[C@@H](CCN1CCC2(CC1)CS(=O)c1ccccc12)c1ccc(Cl)c(Cl)c1)C(=O)OC(C)(C)C,radioligand binding / binding,>1 µM
c1ccc(N2CCCCC2)c(NCc2ccc(CN3CCCNCCNCCCNCC3)cc2)c1,fluorescence,<10 µM
CS(=O)(=O)c1ccc(CC2CCN(CCCN(C(=O)Nc3ccc(Cl)cc3)c3ccccc3)CC2)cc1,radiometric,0.0012 µM
CS(=O)(=O)N1CCC(C(=O)N(CCCN2CCC(Cc3ccccc3)CC2)c2ccccc2)CC1,radiometric,0.04 µM
Cc1ccc(-c2ccc3c(c2)C=C(C(=O)Nc2ccc(C[N+](C)(C)C4CCOCC4)cc2)CCC3)cc1,radiometric,0.0014 µM
CCCCOCCOc1ccc(-c2ccc3c(c2)C=C(C(=O)Nc2ccc(S(=O)Cc4ccccn4)cc2)CCN3CCC)cc1,radiometric,0.067 µM
CC(=O)N1CCC(C(=O)N(CCCN2CCC(Cc3ccc(F)cc3)CC2)c2cccc(Cl)c2)CC1,radiometric,0.003 µM
CCOCCOc1ccc(-c2ccc3c(c2)C=C(C(=O)Nc2ccc(CN(C)C4CCOCC4)cc2)CCS3(=O)=O)cc1,radiometric,0.034 µM
O=C1CC(C(=O)N(CCCN2CCC(Cc3ccccc3)CC2)c2ccccc2)CN1c1ccccc1,radiometric,<1 µM
O=C(C1CCCCC1)N(CCCN1CCC(Cc2ccccc2)CC1)c1ccccc1,radiometric,0.24 µM
CCCCOCCOc1ccc(-c2ccc3c(c2)C=C(C(=O)Nc2ccc([S@](=O)Cc4nncn4CCC)cc2)CCN3CC(C)C)cc1,radiometric,0.0044 µM
CN(C[C@@H](CCN1CCC2(CC1)CS(=O)c1ccccc12)c1ccc(Cl)c(Cl)c1)C(=O)Nc1ccccc1,radioligand binding / binding,>10 µM
c1cnc2c(NCc3ccc(CN4CCCNCCNCCCNCC4)cc3)cccc2c1,fluorescence,<10 µM
CC(C)c1ccc(-c2ccc3c(c2)C=C(C(=O)Nc2ccc(CN(C)C4CCOCC4)cc2)CCS3(=O)=O)cc1,radiometric,0.12 µM
CCCCOCCOc1ccc(-c2ccc3c(c2)C=C(C(=O)Nc2ccc(C(O)c4cccc[n+]4[O-])c(OC)c2)CCN3CC(C)C)cc1,radiometric,0.022 µM
CS(=O)(=O)N1CCCC(C(=O)N(CCCN2CCC(Cc3ccccc3)CC2)c2ccccc2)C1,radiometric,0.18 µM
CCN(C(=O)Cc1ccc(S(C)(=O)=O)cc1)C1CCN(CCC(c2ccccc2)C2CCN(C)CC2)CC1,radiometric,0.001 µM
CCCCOCCOc1ccc(-c2ccc3c(c2)C=C(C(=O)Nc2ccc(C(O)c4ccc(C)c[n+]4[O-])cc2)CCN3CC(C)C)cc1,radiometric,0.21 µM
O=C(Nc1ccc(Cl)cc1)N(CCCN1CCC(Cc2ccc(S(=O)(=O)N3CCOCC3)cc2)CC1)c1ccccc1,radiometric,0.001 µM
CCN(C(=O)Cc1ccc(S(C)(=O)=O)cc1)C1CCN(CC[C@H](NC(=O)C2CCN(C(=O)OC(C)(C)C)CC2)c2ccccc2)CC1,fluorescence,<50 µM
CC(=O)N1CCC(C(=O)N(CCCN2CCC(Cc3ccccc3)CC2)c2ccc(C)c(Cl)c2)CC1,radiometric,0.00062 µM
CN1CC(C(=O)N(CCCN2CCC(C(=O)c3ccc(F)cc3)CC2)c2ccccc2)CC1=O,radiometric,1.9 µM
CCCCOCCOc1ccc(-c2ccc3c(c2)C=C(C(=O)Nc2ccc(C(O)c4cccc[n+]4[O-])c(C(F)(F)F)c2)CCN3CC(C)C)cc1,radiometric,0.014 µM
CCN(C(=O)Cc1ccc(S(C)(=O)=O)cc1)C1CCN(CCC(c2ccccc2)N2CCN(S(=O)(=O)c3ccccc3)CC2)CC1,radiometric,0.01 µM
CCN(C(=O)Cc1ccc(S(C)(=O)=O)cc1)C1CCN(CC[C@H](NC(=O)C2CCN(C(=O)Cc3ccccc3)CC2)c2ccccc2)CC1,fluorescence,<50 µM
CCN1CCC(C(=O)Nc2ccc(CN(C)C3CCOCC3)cc2)=Cc2cc(-c3ccc(N4CCOCC4)cc3)ccc21,radiometric,0.051 µM
CN1CC(C(=O)N(CCCN2CCC(C(=O)c3ccc(F)cc3)CC2)c2ccccc2)CC1=O,radiometric,1.9 µM
CCCCOCCOc1ccc(-c2ccc3c(c2)C=C(C(=O)Nc2ccc([S@@](=O)Cc4nncn4CCC)cc2)CCN3CC(C)C)cc1,radiometric,0.0015 µM
CN1CC(C(=O)N(CCCCN2CCC(C(=O)c3ccc(F)cc3)CC2)c2ccccc2)CC1=O,radiometric,>1 µM
CCCCOCCOc1ccc(-c2ccc3c(c2)C=C(C(=O)Nc2ccc(S(=O)Cc4cncn4CCC)cc2)CCN3CC(C)C)cc1,radiometric,0.0036 µM
CN(CC(CCN1CCC(c2ccccc2)CC1)c1ccccc1)S(=O)(=O)c1ccccc1,radiometric,0.12 µM

7 of the rows above, restated:

compound	read by	value
CC(=O)N1CCC(C(=O)N(CCCN2CCC(Cc3ccccc3)CC2)c2ccc(C)c(Cl)c2)CC1	radiometric	0.00062 µM
CCCCOCCOc1ccc(-c2ccc3c(c2)C=C(C(=O)Nc2ccc(C(O)c4cccc[n+]4[O-])c(C(F)(F)F)c2)CCN3CC(C)C)cc1	radiometric	0.014 µM
CN(CC(CCN1CCC(c2ccccc2)CC1)c1ccccc1)S(=O)(=O)c1ccccc1	radiometric	0.12 µM
CCCCOCCOc1ccc(-c2ccc3c(c2)C=C(C(=O)Nc2ccc(C(O)c4cccc[n+]4[O-])c(OC)c2)CCN3CC(C)C)cc1	radiometric	0.022 µM
CCCCOCCOc1ccc(-c2ccc3c(c2)C=C(C(=O)Nc2ccc(S(=O)Cc4ccnn4C)cc2)CCN3CC(C)C)cc1	radiometric	0.035 µM
CN1CC(C(=O)N(CCCN2CCCCC2)c2ccccc2)CC1=O	radiometric	>10 µM
CCOCCOc1ccc(-c2ccc3c(c2)C=C(C(=O)Nc2ccc(CN(C)C4CCOCC4)cc2)CCS3(=O)=O)cc1	radiometric	0.034 µM